Test results: doi:10.1101/2024.08.19.608619, “Discovery of potent SARS-CoV-2 nsp3 macrodomain inhibitors uncovers lack of translation to cellular antiviral response” (bioRxiv, 2024)

Test system: MERS-CoV
Experiment: Vero E6/TMPRSS2 MERS-CoV antiviral effect with P-gp inhibitor
Format: cell-based

CC(C)[C@H](Nc1ncnc2[nH]ccc12)c1ccc2c(c1)S(=O)(=O)CCC2 [ASAP-0008674]
EC50: > 20 µM and > 5 µM
perc_min_measured (minimum measured response of dose series): 42.601%, 29.019%, 95.686%

The source holds more than one record for some entries. The other results are left out here. The source may hold further records. The values listed for one entry do not match, cause unknown; dose, time, organism, isomer or construct need not be as stated for each record.
